Where a SMILES comes first, the peptide text is derived from it. The star is where a group is joined. Myristoyl = CCCCCCCCCCCCCC(=O)*
What was measured:
Type in all cases: physicochemical
[1] = Quenching of Trp-1 fluorescence by acrylamide in buffer; settings: for KSV (Stern–Volmer constant): peptide 2.0 μM, pH 7.4, 298 K
[2] = Quenching of Trp-1 fluorescence by acrylamide in lipid vesicles; settings: for fa (fraction accessible to the quencher) / NAF (Net Accessibility Factor): POPC LUVs; for KSV (Stern–Volmer constant): POPC LUVs 400 μM (myristoylated) or 1.0 mM (non-myristoylated), peptide 2.0 μM; for NAF (Net Accessibility Factor): (KSV)LUV/(KSV)Buffer
[3] = as above; settings: for fa (fraction accessible to the quencher) / NAF (Net Accessibility Factor): POPC/POPG LUVs; for KSV (Stern–Volmer constant): POPC/POPG LUVs 400 μM (myristoylated) or 1.0 mM (non-myristoylated), peptide 2.0 μM; for NAF (Net Accessibility Factor): (KSV)LUV/(KSV)Buffer
[4] = Circular dichroism, fractional helical content; settings: CD ellipticity at 222 nm, POPC/POPG lipid vesicles, L/P molar ratio of 40, 30 μM lipopeptide, 10 mM phosphate pH 7.4, 298 K

Row | Compound | fa (fraction accessible to the quencher) [1] | KSV (Stern–Volmer constant) [1] [M⁻¹] | fa (fraction accessible to the quencher) [2] | KSV (Stern–Volmer constant) [2] [M⁻¹] | NAF (Net Accessibility Factor) [2] | fa (fraction accessible to the quencher) [3] | KSV (Stern–Volmer constant) [3] [M⁻¹] | NAF (Net Accessibility Factor) [3] | helical fraction fα [4] | Ka (average Stern–Volmer constant for the accessible fluorophore) ([1]; modified Stern–Volmer equation) [M⁻¹]
1 | CCCCCCCCCCCCCC(=O)N[C@@H](Cc1c[nH]c2ccccc12)C(=O)N[C@@H](Cc1ccccc1)C(=O)NCC(=O)N[C@@H](CCCCN)C(=O)N[C@@H](CC(C)C)C(=O)N[C@@H](Cc1ccc(O)cc1)C(=O)N[C@@H](CCCNC(=N)N)C(=O)NCC(=O)N[C@H](C(=O)N[C@H](C(=O)N[C@@H](CCCCN)C(=O)O)[C@@H](C)O)[C@@H](C)CC [Myr-A] (Myristoyl-WFGKLYRGITK-OH; C-terminus assumed) | 1 | 8.0 ± 0.1 | 1 | 2.1 ± 0.2 | 0.26 | 1 | 2.9 ± 0.1 | 0.36 | ~ 0.2 | –
2 | CCCCCCCCCCCCCC(=O)N[C@@H](Cc1c[nH]c2ccccc12)C(=O)N[C@@H](CCCNC(=N)N)C(=O)NCC(=O)N[C@H](C(=O)N[C@H](C(=O)N[C@@H](CCCCN)C(=O)N[C@H](C(=O)N[C@H](C(=O)N[C@@H](CCCCN)C(=O)N[C@@H](CCCCN)C(=O)N[C@H](C(=O)O)C(C)C)C(C)C)C(C)C)[C@@H](C)O)[C@@H](C)CC [Myr-B] (Myristoyl-WRGITKVVKKV-OH; C-terminus assumed) | 0.92 | – | 1 | 5.1 ± 0.1 | 0.15 | 1 | 2.3 ± 0.1 | 0.07 | – | 34.7 ± 0.6
3 | CCCCCCCCCCCCCC(=O)N[C@@H](Cc1c[nH]c2ccccc12)C(=O)N[C@H](C(=O)N[C@H](C(=O)N[C@@H](CCCCN)C(=O)N[C@@H](CCCCN)C(=O)N[C@H](C(=O)N[C@@H](CCCCN)C(=O)NCC(=O)N[C@@H](CC(C)C)C(=O)N[C@@H](CC(C)C)C(=O)N[C@@H](CCCCN)C(=O)O)C(C)C)C(C)C)C(C)C [Myr-C] (Myristoyl-WVVKKVKGLLK-OH; C-terminus assumed) | 1 | 20.5 ± 1 | 1 | 4.4 ± 0.1 | 0.21 | 1 | 2.7 ± 0.1 | 0.13 | ~ 0.1 | –

From article PMC8875392, “Design and Characterization of Myristoylated and Non-Myristoylated Peptides Effective against Candida spp. Clinical Isolates” (International Journal of Molecular Sciences, 2022)
